Anti-infective test results gathered from many reports (values: NIAID ChemDB through PubChem).

Common to all: tests in culture; agent: Cryptococcus neoformans

An empty or dashed field is not shown.

smiles,read-out,strain or isolate,result
CO[C@@H]1[C@@H](O)[C@H](O[C@@H]2[C@@H](O)[C@H](O[C@H]3[C@H](O)[C@@H](O)[C@H](O[C@H]4[C@H](O[C@H]5CC[C@]6(C)C7=C[C@H](O)[C@]89C(=O)O[C@@](C)(C/C=C/C(C)(C)O)[C@H]8CC[C@@]9(C)[C@@H]7CC[C@H]6C5(C)C)OC[C@@H](O[C@@H]5O[C@H](CO)[C@@H](O)[C@H](O[C@@H]6O[C@H](CO)[C@@H](O)[C@H](OC)[C@H]6O)[C@H]5O)[C@@H]4O)O[C@@H]3C)O[C@H](CO)[C@H]2O)O[C@H](CO)[C@H]1O,MIC80,ATCC32609,44.44 µM
CCCCNC(=O)n1c(NC(=O)OC)nc2ccccc21,EC50,IU8698,2.8 µg/mL
C[C@@H]1CC[C@@]2(OC1)O[C@H]1C[C@H]3[C@@H]4CC=C5C[C@@H](O)[C@H](O)[C@@H](O[C@@H]6OC[C@@H](O)[C@H](O)[C@H]6O)[C@]5(C)[C@H]4CC[C@]3(C)[C@@]1(O)[C@@H]2C,MIC,-,≥20 µg/mL
COc1cc(O)c2c(c1)C(=O)c1c(cc3c(c1O)-c1c(cc(C)c(C(=O)NC(C)C(=O)O)c1O)[C@H](OC1OC(C)C(N(C)C)C(OC(CO)OCCO)C1O)[C@H]3O)C2=O,MIC,IAM 4514,1.6 µg/mL
C[C@@H]1CC[C@@]2(OC1)O[C@H]1C[C@H]3[C@@H]4CC=C5C[C@@H](O)[C@H](O)[C@@H](O[C@@H]6OC[C@@H](O)[C@H](O)[C@H]6O[C@@H]6O[C@@H](C)[C@H](O)[C@@H](O)[C@H]6O)[C@]5(C)[C@H]4CC[C@]3(C)[C@H]1[C@@H]2C,MIC,-,≥20 µg/mL
COc1cc(/C=C/[N+](=O)[O-])cc(OC)c1OC,MFC,24 isolates,4–32 µg/mL
C[C@@H](c1ncncc1F)[C@](O)(Cn1cncn1)c1ccc(F)cc1F,MIC80,ATCC32609,0.04 µM
COc1cc(O)c2c(c1)C(=O)c1c(cc3c(c1O)-c1c(cc(C)c(C(=O)NC(C)C(=O)O)c1O)[C@H](OC1COC4C(OC5OCC(O)C(O)C5O)C1OC(=O)N4C)[C@H]3O)C2=O,MIC,IAM 4514,25 µg/mL
CCCOc1ccc2nc(NC(=O)OC)[nH]c2c1,EC50,IU8698,1 µg/mL
CN(C/C=C/C#CC(C)(C)C)Cc1cccc2ccccc12,MIC80,ATCC32609,3.06 µM
COc1cc(O)c2c(c1)C(=O)c1c(cc3c(c1O)-c1c(cc(C)c(C(=O)NC(C)C(=O)O)c1O)[C@H](OC1OC(C)CC(O)C1O)[C@H]3O)C2=O,MIC,IAM 4514,6.3 µg/mL
C=C(CCC1(O)O[C@H]2C[C@H]3[C@@H]4CC=C5C[C@@H](O)[C@H](O)[C@@H](O[C@@H]6O[C@H](CO)[C@H](O)[C@H](O)[C@H]6O)[C@]5(C)[C@H]4CC[C@]3(C)[C@H]2[C@@H]1C)CO[C@@H]1O[C@H](CO)[C@@H](O)[C@H](O)[C@H]1O,MFC,-,5 µg/mL
COC(=O)Nc1nc2ccc(Sc3ccccc3)cc2[nH]1,EC50,10 isolates,0.012 µg/mL
CN[C@H]1[C@@H](O[C@@H]2O[C@H](CO)[C@@H](O)[C@H](O)[C@H]2O)[C@H](O)[C@@H](O[C@H]2c3cc(C)c(C(=O)N[C@H](C)C(=O)OC)c(O)c3-c3c(cc4c(c3O)C(=O)c3cc(OC)cc(O)c3C4=O)[C@@H]2O)O[C@H]1C,MIC,IAM 4514,3.1 µg/mL
CCCCCCCCCCCCCCCC(=O)NC1CC(O)C(O)NC(=O)C2C(O)C(C)CN2C(=O)C(C(O)CC(N)=O)NC(=O)C(C(O)C(O)c2ccc(O)c(S(=O)(=O)O)c2)NC(=O)C2CC(O)CN2C(=O)C(C(C)O)NC1=O,MIC,YC203,50 µg/mL
C=C1CC[C@@]2(OC1)O[C@H]1C[C@H]3[C@@H]4CC=C5C[C@@H](O)[C@H](O)[C@@H](O[C@@H]6O[C@H](CO)[C@H](O)[C@H](O)[C@H]6O)[C@]5(C)[C@H]4CC[C@]3(C)[C@H]1[C@@H]2C,MFC,-,≥20 µg/mL
COc1cc(O)c2c(c1)C(=O)c1c(cc3c(c1O)-c1c(cc(C)c(C(=O)NC(C)C(=O)O)c1O)[C@H](O)[C@H]3OC1OC(C)C(O)C(O)C1O)C2=O,MIC,IAM 4514,>100 µg/mL
CO[C@@H]1[C@@H](O)[C@H](O[C@@H]2[C@@H](O)[C@H](O[C@H]3[C@H](O)[C@@H](O)[C@H](O[C@H]4[C@H](O[C@H]5CC[C@]6(C)C7=C[C@H](O)[C@]89C(=O)O[C@@](C)(CCC=C(C)C)[C@H]8CC[C@@]9(C)[C@@H]7CC[C@H]6C5(C)C)OC[C@@H](O[C@@H]5O[C@H](CO)[C@@H](O)[C@H](O[C@@H]6O[C@H](CO)[C@@H](O)[C@H](OC)[C@H]6O)[C@H]5O)[C@@H]4O)O[C@@H]3C)O[C@H](CO)[C@H]2O)O[C@H](CO)[C@H]1O,MIC80,ATCC32609,0.7 µM
CN[C@@H]1[C@H](O[C@@H]2OC[C@@H](O)[C@H](O)[C@H]2O)[C@@H](O)[C@H](O[C@H]2c3cc(C)c(C(=O)N[C@H](C)C(=O)O)c(O)c3-c3c(cc4c(c3O)C(=O)c3cc(OC)cc(O)c3C4=O)[C@@H]2O)O[C@@H]1C,MIC,IAM 4514,1.6 µg/mL
COC(=O)[C@H]1[C@@H]2C[C@@H](O[C@@H]3O[C@H](C)[C@@H](O)[C@H](N)[C@@H]3O)/C=C/C=C/C=C/C=C/C=C/C=C/C=C/[C@H](C)[C@@H](O)[C@H](C)[C@H](C)OC(=O)C[C@H](O)C[C@H](O)[C@@H](O)CC[C@H](O)C[C@H](O)C[C@](O)(C[C@@H]1O)O2,MIC80,ATCC32609,0.27 µM

The last 3 rows once more:

smiles	read-out	strain or isolate	result
CO[C@@H]1[C@@H](O)[C@H](O[C@@H]2[C@@H](O)[C@H](O[C@H]3[C@H](O)[C@@H](O)[C@H](O[C@H]4[C@H](O[C@H]5CC[C@]6(C)C7=C[C@H](O)[C@]89C(=O)O[C@@](C)(CCC=C(C)C)[C@H]8CC[C@@]9(C)[C@@H]7CC[C@H]6C5(C)C)OC[C@@H](O[C@@H]5O[C@H](CO)[C@@H](O)[C@H](O[C@@H]6O[C@H](CO)[C@@H](O)[C@H](OC)[C@H]6O)[C@H]5O)[C@@H]4O)O[C@@H]3C)O[C@H](CO)[C@H]2O)O[C@H](CO)[C@H]1O	MIC80	ATCC32609	0.7 µM
CN[C@@H]1[C@H](O[C@@H]2OC[C@@H](O)[C@H](O)[C@H]2O)[C@@H](O)[C@H](O[C@H]2c3cc(C)c(C(=O)N[C@H](C)C(=O)O)c(O)c3-c3c(cc4c(c3O)C(=O)c3cc(OC)cc(O)c3C4=O)[C@@H]2O)O[C@@H]1C	MIC	IAM 4514	1.6 µg/mL
COC(=O)[C@H]1[C@@H]2C[C@@H](O[C@@H]3O[C@H](C)[C@@H](O)[C@H](N)[C@@H]3O)/C=C/C=C/C=C/C=C/C=C/C=C/C=C/[C@H](C)[C@@H](O)[C@H](C)[C@H](C)OC(=O)C[C@H](O)C[C@H](O)[C@@H](O)CC[C@H](O)C[C@H](O)C[C@](O)(C[C@@H]1O)O2	MIC80	ATCC32609	0.27 µM

Neighbouring rows are from separate reports. A number after MIC or MFC names an inhibition level or a share of isolates. ECn: concentration that inhibits the pathogen or its effect by n%. Two numbers with a dash give a range or band.